Measured values taken from patent US20230218548A1 (priority 2020, published 2023).

System: SARS-CoV-2
Type: cell-based, SARS-CoV-2 (USA-WA1/2020)

SMILES | Selectivity Index CC50/EC50
CCC12CC3CC(N)(C1)CC(CO[N+](=O)[O-])(C3)C2 (stereo not shown) [NMT2] | 5.40
CC12CC3(C)CC(CCN)(C1)CC(CO[N+](=O)[O-])(C2)C3 [NMT6] | 5.32
NCC1(c2cccc(O[N+](=O)[O-])c2)C2CC3CC(C2)CC1C3 (stereo not shown) [NMT7] | 1.88
CCC(O[N+](=O)[O-])C12CC3(C)CC(C)(CC(CCN)(C3)C1)C2 (stereo not shown) [NMT8] | 4.36
